PubChem BioAssay AID624099, ICCB-Longwood – 2012
Here is an unselected part of about 21,000 deposited reagents. In the full data, 497 (2.4%) are marked active. 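Higher z means weaker E2 silencing; only reporter increases were scored, and knock-downs that hurt cell survival may mask genuine repressor factors.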

- Assay: 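Human genes that papillomavirus E2 requires to repress the HPV18 LCR promoter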 (primary screen)
- Cell system: human C33A cervical carcinoma cells (HPV-negative) stably expressing BPV1 E2 and an HPV18 LCR luciferase reporter
- Knock-down reagent: siRNA pool against human genes, 40 nM
- Time to read-out: 72 h
- Detection: 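HPV18 LCR reporter light per well, converted to plate-wise z-scores that exclude control wells, and averaged over triplicate plates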
- Direction: mean z-score and z-score: higher = stronger reporter signal, weaker E2 silencing
- Active means: 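Mean z ≥ 2 together with z ≥ 2 in two or more of the three replicates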

target gene | mean z-score | z-score, replicate A | z-score, replicate B | z-score, replicate C | Call
CBLL1 | -0.89 | -0.48 | -0.62 | -1.56 | inactive
CCL16 | -0.05 | -0.07 | 0 | -0.08 | inactive
PLEKHA5 | 1.02 | 1.19 | 1.19 | 0.68 | inactive
FADS1 | 0.79 | 1.21 | 0.57 | 0.6 | inactive
CREB1 | -1.08 | -1.04 | -1.48 | -0.72 | inactive
GEMIN6 | 0.47 | 0.34 | 0.74 | 0.32 | inactive
SPRYD7 | -0.47 | -0.73 | -0.31 | -0.36 | inactive
LOC389841 (retired record) | 0.33 | 0.36 | -0.05 | 0.69 | inactive
RLF | -0.63 | -0.74 | -0.45 | -0.7 | inactive
STRC | -0.46 | -0.22 | -0.57 | -0.59 | inactive
CCDC126 | -0.58 | -0.48 | -0.62 | -0.64 | inactive
RPTN | -0.38 | -0.25 | -0.71 | -0.19 | inactive
KCTD16 | 0.66 | 0.6 | 0.66 | 0.74 | inactive
DHDH | 0.33 | 0.16 | 0.19 | 0.62 | inactive
CDPF1 | -1.23 | -0.84 | -1.57 | -1.29 | inactive
CFHR1 | -0.13 | -0.13 | -0.04 | -0.21 | inactive
OPA3 | 1.17 | 0.97 | 0.96 | 1.59 | inactive
TAS1R1 | 0.5 | 0.17 | 0.63 | 0.69 | inactive
UGT2A3 | -0.29 | 0.57 | -0.65 | -0.81 | inactive
PARVA | 0.97 | 0.98 | 1.03 | 0.89 | inactive
RAP1B | -0.27 | -0.29 | 0.02 | -0.54 | inactive
LOC388436 | 1.21 | 1.01 | 1.35 | 1.28 | inactive
PDC | 0.14 | 0.04 | 0.09 | 0.29 | inactive
OTUD6B | -0.42 | -0.1 | -0.3 | -0.87 | inactive
ESAM | -0.51 | -0.5 | -0.95 | -0.09 | inactive
LOC285188 (retired record) | -0.69 | -0.88 | -0.23 | -0.96 | inactive
ZC2HC1C | 0.38 | 0.13 | 0.01 | 1 | inactive
SRSF3 | 0.44 | -0.03 | 0.74 | 0.6 | inactive
C1QC | -0.07 | -0.32 | 0.26 | -0.14 | inactive
KCTD3 | 0.31 | -0.3 | 0.63 | 0.6 | inactive
HMGCS1 | -1.04 | -1.19 | -1.07 | -0.87 | inactive
PCDHGA7 | -1.14 | -1.63 | -0.98 | -0.79 | inactive
LOC390511 (retired record) | -0.35 | -0.42 | 0.05 | -0.67 | inactive
CHRM2 | 0.18 | 0.22 | 0.05 | 0.27 | inactive
GARIN5B | 0.58 | 0.85 | 0.44 | 0.44 | inactive
RLIM | 0.04 | -0.35 | 0.04 | 0.42 | inactive

Copied from above (6 entries):
target gene | mean z-score | z-score, replicate A | z-score, replicate B | z-score, replicate C | Call
KCTD16 | 0.66 | 0.6 | 0.66 | 0.74 | inactive
DHDH | 0.33 | 0.16 | 0.19 | 0.62 | inactive
CDPF1 | -1.23 | -0.84 | -1.57 | -1.29 | inactive
CFHR1 | -0.13 | -0.13 | -0.04 | -0.21 | inactive
OPA3 | 1.17 | 0.97 | 0.96 | 1.59 | inactive
TAS1R1 | 0.5 | 0.17 | 0.63 | 0.69 | inactive

The results go on:
target gene | mean z-score | z-score, replicate A | z-score, replicate B | z-score, replicate C | Call
CPO | -0.49 | -0.56 | -0.68 | -0.21 | inactive
RARG | 0.56 | 0.61 | 0.48 | 0.58 | inactive
IFFO1 | 0.29 | 0.55 | 0 | 0.33 | inactive
HOXD8 | -0.38 | -0.23 | -0.54 | -0.36 | inactive
ACSS1 | 1.15 | 1 | 1.34 | 1.11 | inactive
LINC00548 | 0.06 | 0.42 | -0.33 | 0.09 | inactive
SSU72P1 | 1.74 | 1.95 | 1.59 | 1.69 | inactive
SS18L1 | 0.22 | 0.17 | 0.12 | 0.36 | inactive
CASP8AP2 | 5.78 | 5.87 | 5.72 | 5.75 | active
INSM2 | -1.39 | -0.62 | -1.63 | -1.93 | inactive
FHDC1 | -0.44 | -0.59 | -0.41 | -0.31 | inactive
IKBKE | 0.64 | 0.71 | 0.64 | 0.56 | inactive
DERL1 | -0.88 | -0.66 | -1.12 | -0.85 | inactive
A4GNT | -0.36 | -0.48 | -0.23 | -0.36 | inactive
ZDHHC9 | -0.39 | -0.42 | -0.31 | -0.44 | inactive
LOC401222 (retired record) | 0.17 | 0.1 | 0.32 | 0.09 | inactive
NDN | -0.09 | 0.03 | 0.14 | -0.45 | inactive
HS3ST2 | -0.01 | -0.03 | -0.26 | 0.27 | inactive
CCDC6 | 1.02 | 1.03 | 0.76 | 1.28 | inactive
SEZ6L | 1.04 | 0.86 | 1.01 | 1.24 | inactive
UBE2D3 | 0.6 | 0.98 | 0.23 | 0.6 | inactive
